In the supplement of paper PMC9931576:
Human monoclonal antibodies against the spike receptor-binding domain (heavy:light variable regions). IC50 against pseudoviruses bearing the spike of naturally observed variants; lower = stronger; >10 µg/ml means not reached at the top dose. No active / inactive call. The stated detection limit is 0.0005 µg/ml; values near or below 0.001 µg/ml lie at the floor of the assay.

Tests used:
Test in all cases: pseudovirus neutralization IC50; higher = weaker neutralization
[1] = molecular target: SARS-CoV-2 Omicron BA.1 spike pseudovirus
Procedure: (§1)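 Single-round VSV luciferase pseudovirus mixed with antibody dilutions for 1 h and put on Huh-7 cells for about a day; IC50 from the dose curve.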

[2] = molecular target: SARS-CoV-2 Omicron BA.2 spike pseudovirus
Procedure: as §1

[3] = molecular target: SARS-CoV-2 Omicron BA.2.75 spike pseudovirus
Procedure: as §1

[4] = molecular target: SARS-CoV-2 Omicron BA.5 spike pseudovirus
Procedure: as §1

[5] = molecular target: SARS-CoV-2 Omicron BQ.1.1 spike pseudovirus
Procedure: as §1

[6] = molecular target: SARS-CoV-2 Omicron XBB spike pseudovirus
Procedure: as §1

[7] = molecular target: SARS-CoV-2 early D614G spike pseudovirus
Procedure: as §1

Binder | pseudovirus neutralization IC50 [1] | pseudovirus neutralization IC50 [2] | pseudovirus neutralization IC50 [3] | pseudovirus neutralization IC50 [4] | pseudovirus neutralization IC50 [5] | pseudovirus neutralization IC50 [6] | pseudovirus neutralization IC50 [7]
BD56-1302 (protein) chain 1: EVQLVESGGGLVQPGGSLRLSCAASGLIVSRNYMSWVRQPPGRGLEWVSLLFAGGSTFYADSVKGRFTISRDNSKNTLYLQMSSLRNEDTAVYYCARDLGPVGATDVWGQGTTVTVSS chain 2: EIVMTQSPATLSVSPGGKATLSCRASQSIHSSLAWYQQKPGQAPRLLIYDASTRATGIPARFGGSGSGTEFTLTISSLQSEDFAVYHCQQYHTWPPMYTFGQGTKLEIK | 0.00217 µg/mL | 0.00273 µg/mL | 0.00402 µg/mL | 0.00205 µg/mL | 0.0149 µg/mL | 0.0181 µg/mL | 0.00572 µg/mL
BD56-1303 (protein) chain 1: QVQLQESGPGLVKPSETLSLTCTVAGGSISNYYWSWIRQPAGKGLEWIGRVYISGSTNYIPSLKGRVTMSLDTSKNQFSLRLRSVTAADTAVYYCATSGSGTFSDYWSFDLWGRGTLVTVSS chain 2: NFMLTQPHSVSESPGKTVTISCTRSSGSIASNYVQWYQRRPGSAPTTVIYEDNQRPSGVPDRFSGSIDTSSNSASLTISGLKTEDEADYYCQSYDTSNVVFGGGTKLTVL | 0.181 µg/mL | 0.038 µg/mL | 0.0666 µg/mL | 0.0598 µg/mL | > 10 µg/mL | 3.37 µg/mL | 0.0669 µg/mL
BD56-1305 (protein) chain 1: QAQLVESGGGVLQPGRSLRLSCVASRLTFSAYGMHWVRQAPGKGLEWVAVISSDGSNKYYADSVKGRFSISRDNSKNTLYLQMNSLRAEDAAVYYCARLLGYYDGSGYFGNEYWGQGTLVTVSS chain 2: QSALTQPASVSGSPGQSITISCTGTSSDVGGYNFVSWYQQHPGKAPKLMIYDVSDRPSGVSNRFSGSKSGNTASLAISGLQAEDEADYYCSSYTSSSTVVFGGGTKLTVL | > 10 µg/mL | > 10 µg/mL | > 10 µg/mL | > 10 µg/mL | > 10 µg/mL | > 10 µg/mL | 1.02 µg/mL
COV2-2113 (protein) chain 1: EVQLVESGGGLIQPGGSLRLSCAASEVTVSSNYMSWVRQAPGKGLEWVSLIYSGGTTYYADSVKGRFTISRDNSKNTLYLQMNSLRAEDTAVYYCARDFLRWHDLWGQGTLVTVSS chain 2: DIQMTQSPSSLSASVGDRVTITCQASQDINNYLNWYQQKPGKAPKLLIYDASNLETGVPLRFSGSGSGTDFIFTISSLQPEDIATYYCQQYDNLPPVFGGGTKVEIK | > 10 µg/mL | > 10 µg/mL | > 10 µg/mL | > 10 µg/mL | > 10 µg/mL | > 10 µg/mL | 0.0164 µg/mL
BD56-1309 (protein) chain 1: QVQLVESGGGVVQPGRSLRLSCAASGFTFSSYVMHWVRQAPGKGLEWVAVISYDGSEKYYADSVKGRFTVSRDNSKNTLYLQMHSLRAEDTAVYYCARDFSFRGSGWPEYFQHWGQGTLVTVSS chain 2: SYVLTQPPSVSVAPGKTASIACGGKNIGTKGVHWYQQKPGQAPLLVIYYDSDRPSGIPERISGSKSGNTATLSISRVEAGDEADYYCQVWDSSSDHVVFGGGTKLTVL | 0.00917 µg/mL | 0.00981 µg/mL | > 10 µg/mL | > 10 µg/mL | > 10 µg/mL | > 10 µg/mL | 0.00591 µg/mL
BD56-1311 (protein) chain 1: QVQLVQSGAEVKKPGASVKVSCRASGYTFTAYYLHWVRQAPGQGLEWMGWINPDSGDTNYAQTFQGRVTMTRDTSITTAYMELSRLTSDDTAVYYCARDLSALGPSYADDNAFDIWGQGTMVTVSP chain 2: SYELTQPPSASVSPGQTAKITCSGQTWPTQYAYWYQLKPGQAPVLVIYKDSERPSGIPERFSGSSSGTTVTLTIRGVQAEDEADYYCQSADSRGVVFGGGTKLTVL | > 10 µg/mL | > 10 µg/mL | > 10 µg/mL | > 10 µg/mL | > 10 µg/mL | > 10 µg/mL | 0.707 µg/mL
